Earlier results, collected in patent publication US9474793B2, “Vaccines and methods for prevention and treatment of drug-resistant HIV-1 and hepatitis B virus” (The United States of America, as represented by the …, priority 2005, dated 2016).

System: HIV variant with M184I or M184V in RT
Details: M184I / M184V mutations; Kanagawa et al. 1993; cited from earlier work

## Nc1ccn([C@H]2CS[C@@H](CO)O2)c(=O)n1 [lamivudine, (−)2′,3′-dideoxy-3′-thiacytidine]
  decrease in sensitivity: > 1,000 fold
